{"source": "PubChem BioAssay AID1259414, Drosophila RNAi Screening Center | 2018", "assay": "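Fly genes that alter Wolbachia amount inside host cells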 (primary screen)", "cells": "Drosophila JW18 cells infected with Wolbachia", "knock-down reagent": "long dsRNA against Drosophila genes, 0.25 µg dsRNA per well of a 384-well plate", "time to read-out": "5 days", "conditions": "cells persistently infected with Wolbachia before knock-down; no added drug", "measurement": "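Automated imaging of bacterial rRNA staining divided by host cell count, reported as plate-normalised robust z-score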", "scale": "Wolbachia per cell robust z: higher = more Wolbachia per host cell than the plate typical", "hit rule": "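Active if absolute robust z reaches 1.5 in two or more of three replicates, leaving out multi- or no-target dsRNAs, genes unexpressed in JW18 and A1 wells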", "note": "In all, the deposit lists about 24,000 reagents; this is a random part of those that have a named target and a result. Of all reagents, about 1,210 (5%) got an active call. 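Inactive calls also include excluded dsRNAs with several or no targets, genes unexpressed in JW18, and well A1, regardless of score.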 Unmarked entries are inactive. Reagents against one gene are numbered here. A plus sign joins genes that one reagent is predicted to hit."}
{"Gene":"Nup107 (Nucleoporin 107kD)","dsRNA no.":1,"Wolbachia per cell robust z, rep 1":0.393,"Wolbachia per cell robust z, rep 2":0.0389,"Wolbachia per cell robust z, rep 3":0.603}
{"Gene":"CG13023","dsRNA no.":1,"Wolbachia per cell robust z, rep 1":0.585,"Wolbachia per cell robust z, rep 2":-0.0515,"Wolbachia per cell robust z, rep 3":-0.338}
{"Gene":"Ir7c (Ionotropic receptor 7c)","dsRNA no.":1,"Wolbachia per cell robust z, rep 1":-1.52,"Wolbachia per cell robust z, rep 2":-0.67,"Wolbachia per cell robust z, rep 3":0.623}
{"Gene":"tey (teyrha-meyrha)","dsRNA no.":1,"Wolbachia per cell robust z, rep 1":0.417,"Wolbachia per cell robust z, rep 2":-5.26,"Wolbachia per cell robust z, rep 3":0.809}
{"Gene":"tey (teyrha-meyrha)","dsRNA no.":2,"Wolbachia per cell robust z, rep 1":-1.68,"Wolbachia per cell robust z, rep 2":-0.647,"Wolbachia per cell robust z, rep 3":-0.773}
{"Gene":"tey (teyrha-meyrha)","dsRNA no.":3,"Wolbachia per cell robust z, rep 1":-2.72,"Wolbachia per cell robust z, rep 2":-0.78,"Wolbachia per cell robust z, rep 3":-0.137}
{"Gene":"mAChR-B (muscarinic Acetylcholine Receptor, B-type)","dsRNA no.":1,"Wolbachia per cell robust z, rep 1":-1.15,"Wolbachia per cell robust z, rep 2":-0.451,"Wolbachia per cell robust z, rep 3":0.394}
{"Gene":"mAChR-B (muscarinic Acetylcholine Receptor, B-type)","dsRNA no.":2,"Wolbachia per cell robust z, rep 1":-3.27,"Wolbachia per cell robust z, rep 2":-2.03,"Wolbachia per cell robust z, rep 3":-0.384}
{"Gene":"CG10822","dsRNA no.":1,"Wolbachia per cell robust z, rep 1":0.227,"Wolbachia per cell robust z, rep 2":-1.22,"Wolbachia per cell robust z, rep 3":-0.582}
{"Gene":"CG3999","dsRNA no.":1,"Wolbachia per cell robust z, rep 1":-4.78,"Wolbachia per cell robust z, rep 2":0.197,"Wolbachia per cell robust z, rep 3":0.211}
{"Gene":"CG3999","dsRNA no.":2,"Wolbachia per cell robust z, rep 1":-0.203,"Wolbachia per cell robust z, rep 2":-0.0395,"Wolbachia per cell robust z, rep 3":-1.34}
{"Gene":"Hsp70Aa + Hsp70Ab","dsRNA no.":1,"Wolbachia per cell robust z, rep 1":-0.368,"Wolbachia per cell robust z, rep 2":-0.469,"Wolbachia per cell robust z, rep 3":-2.29}
{"Gene":"Hsp70Aa + Hsp70Ab","dsRNA no.":2,"Wolbachia per cell robust z, rep 1":-0.678,"Wolbachia per cell robust z, rep 2":-7.07,"Wolbachia per cell robust z, rep 3":0.015}

2 entries from above, arranged by “Wolbachia per cell robust z, rep 2”, high to low.
{"Gene":"tey (teyrha-meyrha)","dsRNA no.":2,"Wolbachia per cell robust z, rep 1":-1.68,"Wolbachia per cell robust z, rep 2":-0.647,"Wolbachia per cell robust z, rep 3":-0.773}
{"Gene":"tey (teyrha-meyrha)","dsRNA no.":1,"Wolbachia per cell robust z, rep 1":0.417,"Wolbachia per cell robust z, rep 2":-5.26,"Wolbachia per cell robust z, rep 3":0.809}
